Experimental findings from paper PMC5859253 are described below.

Protein sequences, listed by entry. Tags and fused reporters are not part of them. Lines headed by an entry give the natural chain unless they say otherwise; changes in a name come on top.
UniProt P0DM78: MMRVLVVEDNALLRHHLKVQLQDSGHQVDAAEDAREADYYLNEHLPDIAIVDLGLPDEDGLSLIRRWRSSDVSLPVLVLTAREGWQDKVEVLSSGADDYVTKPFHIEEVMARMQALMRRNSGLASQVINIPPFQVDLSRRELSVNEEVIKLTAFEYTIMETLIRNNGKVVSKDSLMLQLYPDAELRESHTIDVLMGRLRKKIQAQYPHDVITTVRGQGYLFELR

Construct, isoform or probe ends are uncertain for at least one entry. For some assays here: At least one verdict was read from the data and is not stated in words by the source. For some assays here: Where a protein sequence is shown, tags need not be part of it.

Data set [1] deals with T1, MBP-HilD (UniProt E1WAC0).
T1 sequence (looked up, limits assumed): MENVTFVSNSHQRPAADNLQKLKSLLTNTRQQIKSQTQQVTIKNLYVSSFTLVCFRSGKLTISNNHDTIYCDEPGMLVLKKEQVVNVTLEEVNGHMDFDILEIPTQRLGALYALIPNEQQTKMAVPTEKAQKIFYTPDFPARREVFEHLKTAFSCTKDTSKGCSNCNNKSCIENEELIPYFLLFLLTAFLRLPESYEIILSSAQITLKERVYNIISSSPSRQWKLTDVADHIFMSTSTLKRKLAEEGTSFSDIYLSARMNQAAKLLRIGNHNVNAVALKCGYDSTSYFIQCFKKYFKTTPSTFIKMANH
Description: EMSA. To be noted: shift at these concentrations; HilD/H-NS EMSA: 10 mM Tris-HCl pH 8, 50 mM KCl, 1 mM DTT, 0.5 mM EDTA, 5% glycerol, 10 ug/ml BSA, ~100 ng DNA, RT 20 min; recombinant protein; protein details: N-term MBP; probe letters rebuilt from the primers and the genome.

Data set [2] deals with PhoP-H6 (phosphorylated) (UniProt P0DM78). Description: competition with a labelled probe. The following applies: phosphorylated PhoP 1 uM, unlabelled grhD1 5-100 fold excess; HilD/H-NS EMSA: 10 mM Tris-HCl pH 8, 50 mM KCl, 1 mM DTT, 0.5 mM EDTA, 5% glycerol, 10 ug/ml BSA, ~100 ng DNA, RT 20 min; recombinant protein; protein details: 6xHis; label: 5'-32P on one strand; probe letters rebuilt from the primers and the genome.

For “GACAAGCTTTTCTGAGCGTAGCAGGGAGCCGTCCATGTTGAGTATGAAATCATCAAAGACGAATTTTTTATTCGATACAGGAACAGGATTAAAATGTGGCATGATAATAGTGTATTCTCTTACAGGGTGAAAAGTTATAATAACTAATACAAGTCGTTAGGATAGAATCTACTGTTTCAGTAATTCTGCTGTTAGTACTAACGGTCAGGTTGAGCTTTTATTATGAGCTTAATGTCATATTCTACGGGCTCGGGTTTATATGTTTTTAACATTTGATTATTTAGCTTATGCCTGTGCTTTAAATAACTGACATGTTGGTAATAATATTGTTATAACTAACTGTGATTATCGAATGGACGCTGCCGTATATCCTGGTGCAGAGAGAGTCAGCGCCGGGCATCTAAATATTTACATATTTAACTTGGCCTCATTGCAATAGAGATTAGTTTTGTAGCTATCTTACTGCATTTTTTTGGGGTGTAAATGCTGCTTATTATATCTTCATGGTTAATGGTCTGATAATTACACCATCAGAACCATTTTTCTCGAAGATTTCCACTAAATGACCATTCGTTGAAAGTTTAAGAGTGTAATTTGTCTTAGGTTCCAAAATATAAATGAAAGACTGTTTTTAATGGTGCGCTTATTTTTATATTTTTTTGCAAAATAATGATATCGTCTTTTCTTTACTCCCTTCAGTTATAGCGTCAAAAAGGCAGGAGGGTTATGAGCAGTATCATCCTCAGGCTGGCTCCAGGCATTATATCGATATCAGGAGGAAGAGAGGAGGTATGCCTGGCAGAAAGCTAACAAGCGTGACTGTTTCGGTATAAACCGTTCAGGCAAATAGTTCTCAGAGGGATCCGAT (double strand) [hilA regulatory region]”, in data set [1], the binding result was “binds”.

With “ATCCAGAATCAGCTCCAGATAGTATTTCAAATAAACAGCCCGCACTATAGCGCATACTTTTTTCAGACACAGTTTACAGGGATACTCTCTTTATATCCACGCGCACGGTTGCCTTAATCATGTCTTCCGCGATAACACAGTTTGTCAACCTATTCTATATAACCAAGCTTAAACAGAACCTTACCAGCCAGTGATATCAGCTCAGGACTTTCAGGATAAAAACGCAGTAACGGCAAAAATACCGCCTCACCGATAAT (double strand) [grhD1 promoter (PhoP EMSA)]”, the binding result in data set [2] is reported as “binds”.
